Read-outs that look alike come from different tables or passages of the source.
Test system: CSFV reference strain Alfort 187
Type: cell-based, porcine

With IFN-γ the “Levels of viral E2 protein in the cytosol of infected cells” value was “dose-dependant effect on the reduction”, the “Number of infected cells” value was “reduced the number of infected cells down to a level comparable with those of cells pre-treated with IFN-α” and the “Proportion of infected cells” value was “no effect”. The “Viral RNA released into the culture supernatant” value was “dose-dependant effect on the reduction”, the “Proportion of CSFV infected cells” value (after 24 hours) was “dose-dependant reduction” and the “Proportion of CSFV infected cells” value (after 48 hours) was “reduction in the proportion of CSFV infected cells”.
